{"source": "PubChem BioAssay AID504761 – Drosophila RNAi Screening Center | 2011", "assay": "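Fly genes whose silencing reduces dengue virus type 2 infection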 (primary screen)", "cell system": "D.Mel-2 cells from Drosophila", "knock-down reagent": "long dsRNA against Drosophila genes", "conditions": "infection with dengue virus type 2; dose and infection time not stated", "measurement": "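Cells stained for dengue envelope protein and imaged; percent of infected cells per well on duplicate plates, ranked by infection, with stained nuclei counted for cell number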", "scale": "infection score: higher = more virus-infected cells", "active means": "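Very low infection ranking in both replicate wells (chance probability at most 0.065), then a retest showing infection dropped 1.5-fold or more at p below 0.05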", "calls": "active = confirmed: knock-down lowers infection; inactive = not picked or not confirmed", "note": "The deposit covers about 22,000 reagents; shown is a random part of those with a known target gene and a result. Of all reagents, 116 (0.52%) got an active call. 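Calls depend on retest data that are not deposited; infection was ranked per plate without normalising between plates; the unit of the infection score is not given.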 A plus sign joins genes that one reagent is predicted to hit. Not all columns of the deposit are shown. Not given: the amount of reagent, the time to read-out."}
{"predicted target":"CG13796","DRSC id":"DRSC24686","infection score, replicate 1":3.69,"call":"inactive"}
{"predicted target":"Or82a","DRSC id":"DRSC11996","infection score, replicate 1":1.6,"call":"inactive"}
{"predicted target":"Rab10","DRSC id":"DRSC20572","infection score, replicate 1":3.21,"call":"inactive"}
{"predicted target":"Rab10","DRSC id":"DRSC25270","infection score, replicate 1":5.46,"call":"inactive"}
{"predicted target":"CG13380 + CG4174","DRSC id":"DRSC09988","infection score, replicate 1":3.36,"call":"inactive"}
{"predicted target":"CG13380 + CG4174","DRSC id":"DRSC10406","infection score, replicate 1":2.56,"call":"inactive"}
{"predicted target":"CG11899","DRSC id":"DRSC16656","infection score, replicate 1":0.96,"call":"inactive"}
{"predicted target":"CG14598","DRSC id":"DRSC12541","infection score, replicate 1":3.43,"call":"inactive"}
{"predicted target":"CG14598","DRSC id":"DRSC30074","infection score, replicate 1":7.44,"call":"inactive"}
{"predicted target":"CG12493","DRSC id":"DRSC08279","infection score, replicate 1":6.76,"call":"inactive"}
{"predicted target":"CG12493","DRSC id":"DRSC25535","infection score, replicate 1":7.92,"call":"inactive"}

Quoted from the listing for reference:
{"predicted target":"Rab10","DRSC id":"DRSC20572","infection score, replicate 1":3.21,"call":"inactive"}
{"predicted target":"Rab10","DRSC id":"DRSC25270","infection score, replicate 1":5.46,"call":"inactive"}

Additional entries follow:
{"predicted target":"Cad99C","DRSC id":"DRSC15050","infection score, replicate 1":2.46,"call":"inactive"}
{"predicted target":"Cad99C","DRSC id":"DRSC16317","infection score, replicate 1":2.06,"call":"inactive"}
{"predicted target":"Tsp96F","DRSC id":"DRSC14147","infection score, replicate 1":2.49,"call":"inactive"}
{"predicted target":"CG14075","DRSC id":"DRSC10080","infection score, replicate 1":6.12,"call":"inactive"}
{"predicted target":"RpL23A","DRSC id":"DRSC08694","infection score, replicate 1":6.78,"call":"inactive"}
{"predicted target":"RpL23A","DRSC id":"DRSC22035","infection score, replicate 1":4.54,"call":"inactive"}
{"predicted target":"RpL23A","DRSC id":"DRSC25828","infection score, replicate 1":3.31,"call":"inactive"}
{"predicted target":"CG42537","DRSC id":"DRSC12519","infection score, replicate 1":7.49,"call":"inactive"}
{"predicted target":"atl","DRSC id":"DRSC16089","infection score, replicate 1":4.73,"call":"inactive"}
{"predicted target":"atl","DRSC id":"DRSC26241","infection score, replicate 1":2.56,"call":"inactive"}
